# Measurements taken from patent publication US12486489B2, “Culture medium for testing drug resistance of H.pylori as well as preparation method and use thereof” (priority 2022, dated 2025).
# Tested on: H. pylori
# Experiment: Verification of resistance breakpoint: growth of laboratory strains on Columbia solid culture medium with added antibiotics, 72 hours
# Type: cell-based, Helicobacter pylori
# Conditions: conclusion of breakpoint verification
# Description: The plates are cooled and inverted for approximately 10 mL/piece, marked properly for the subsequent use.
# (2) Preparation of bacterial solution: H. pylori grown in logarithmic phase on a solid plate is taken to prepare a bacterial suspension by using BHI. The concentration OD600 is adjusted to 0.3 (1×10^8 CFU/mL), diluted 10 times for the subsequent use.
# (3) Inoculation of bacterial solution: 10 μL of bacterial solution is taken and added to Columbia culture medium and the results are determined after cultivating for 72 hours.
# (4) Result determination: the minimum drug concentration for no growth of bacteria on the plate is the minimum inhibitory concentration of the bacteria against the drug.
smiles,measurement,value
"CC1(C)S[C@@H]2[C@H](NC(=O)[C@H](N)c3ccc(O)cc3)C(=O)N2[C@H]1C(=O)O [Amoxicillin, amoxicillin]",optimal concentration for adding antibiotics,0.0625 µg/mL
